PubChem BioAssay AID1259414, Drosophila RNAi Screening Center | 2018
Aim: 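Genome-wide screen for host control of endosymbiont load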 (primary screen). Cell system: Drosophila JW18 cells infected with Wolbachia. Knock-down reagent: long dsRNA against Drosophila genes, 0.25 µg dsRNA per well of a 384-well plate. Timing: 5 days. Challenge: cells persistently infected with Wolbachia before knock-down; no added drug. Measurement: 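Imaged fluorescence in situ signal for Wolbachia 23S rRNA per DAPI-counted host cell, given as a robust z-score within each plate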. Reading the numbers: Wolbachia per cell robust z: higher = more Wolbachia per host cell than the plate typical. Hit rule: 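Hit when robust z is 1.5 or more, or -1.5 or less, in at least two of three replicates; excludes dsRNAs with several or no targets, genes not expressed in JW18 and well A1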.
In all, the deposit lists about 24,000 reagents; shown is an unselected part of those that have a named target and a result. Over the whole deposit, about 1,210 (5%) were called active. 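Inactive calls also include excluded dsRNAs with several or no targets, genes unexpressed in JW18, and well A1, regardless of score.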 Unmarked entries are inactive. A plus sign joins genes that one reagent is predicted to hit.

target	amplicon	Wolbachia per cell robust z, rep 1	Wolbachia per cell robust z, rep 2	Wolbachia per cell robust z, rep 3
Ir31a (Ionotropic receptor 31a)	DRSC22358	0.901	-1.14	-0.466
TwdlZ (TweedleZ)	DRSC19154	-1.29	-0.946	-0.0652
Ance (Angiotensin converting enzyme)	DRSC01865	-0.559	1.31	0.309
CG4768	DRSC19917	-2.22	0.154	-1.77
CG12520	DRSC09892	-3.06 (active)	-1.32	-2.27
CG1103	DRSC24616	-0.3	0.206	0.536
CG5567	DRSC10517	-0.237	0.706	0.997
CG5567	DRSC41438	-0.158	-0.00349	0.0231
jumu (jumeau)	DRSC16651	1.29	1.03	0.657
jumu (jumeau)	DRSC40729	1.92	0.955	0.76
COX4L (Cytochrome c oxidase subunit 4-like)	DRSC04841	0.057	0.327	0.809
CG34354	DRSC15645	-3.12	1.06	-1.82
CG34354	DRSC23054	0.019	0.298	0.344
Pdh (Photoreceptor dehydrogenase)	DRSC11249	0.74	0.51	-4.22
Pdh (Photoreceptor dehydrogenase)	DRSC26995	0.383	-0.355	-0.418
Cpr76Ba (Cuticular protein 76Ba)	DRSC11060	-0.502	0.965	-0.565
Cpr76Ba (Cuticular protein 76Ba)	DRSC27858	0.885	-0.175	-0.0135
Hrb98DE (Heterogeneous nuclear ribonucleoprotein at 98DE)	DRSC16709	-2.13	-0.332	1.64
Hrb98DE (Heterogeneous nuclear ribonucleoprotein at 98DE)	DRSC24508	0.311	-1.22	-0.501
CG17570	DRSC01770	-0.926	-0.817	-1.18
CG17570	DRSC03754	1.18	0.576	0.601
CG6650	DRSC10685	-0.0297	-0.127	0.244
Ten-a (Tenascin accessory)	DRSC18924	-2.45	0.798	-0.65
Ten-a (Tenascin accessory)	DRSC19700	-4.37	0.835	-1.15
Ten-a (Tenascin accessory)	DRSC19793	-0.681	-0.269	-0.705
Ten-a (Tenascin accessory)	DRSC19864	-0.183	-0.677	-3.77
Ten-a (Tenascin accessory)	DRSC19865	-0.307 (active)	-4.54	-1.54
Ten-a (Tenascin accessory)	DRSC20290	-4.85	0.246	0.503
Ten-a (Tenascin accessory)	DRSC21461	0.62	0.0608	-1.2
Ten-a (Tenascin accessory)	DRSC23016	0.304	0.796	-3.89
Ten-a (Tenascin accessory)	DRSC29598	-0.374	-2.34	-0.99
CG34291 + asRNA:CR31084	DRSC38762	-1.05	-0.944	-2.34
csul (capsuleen)	DRSC07599	-1.01	-1.09	-2.37
soti (scotti)	DRSC16432	0.325	-0.691	1.86
soti (scotti)	DRSC28682	-1.29	-0.873	0.307
Rpn13 (Regulatory particle non-ATPase 13)	DRSC06379	0.338	0.707	-0.345
CG7322	DRSC20036	-0.669	-0.43	-1.09
CG7322	DRSC26735	-2.35	-1.06	0.0822
CG14932	DRSC02414	-0.235	-0.675	0.061
CG14932	DRSC26333	2.8	1.07	1.5
mon2 (monensin sensitivity 2)	DRSC03112	0.264	-0.357	0.904
rk (rickets)	DRSC03602	-0.47	0.122	-0.398
Ugt37A2 (UDP-glycosyltransferase family 37 member A2)	DRSC15861	1.48	1.09	1.23
Ugt37A2 (UDP-glycosyltransferase family 37 member A2)	DRSC29967	-6.81	-8.1	-2.47
Kaz (Katazuke)	DRSC14637	-0.508 (active)	-2	-4.44
fsd (fates-shifted)	DRSC06166	-0.695	-1.43	-0.341
CG30161	DRSC22141	-1.28	-0.0541	-0.153
CG31693	DRSC03674	-0.372	-8.81	0.00361
CG15543	DRSC15081	1.15	0.915	-4.06
CG15543	DRSC41449	0	-1.05	0.233
Veneno	DRSC16537	-0.571	1.04	0.686
unc-13-4A	DRSC10201	-8.16	0.0994	0.577
unc-13-4A	DRSC10202	0.829	0.51	0.489
unc-13-4A	DRSC11013	-0.172	-0.706	-0.539
mahj (mahjong)	DRSC04053	0.654	-0.127	0.302
CG9346	DRSC04542	-0.555	-0.813	1.09
CG9346	DRSC41515	-0.181	-0.515	0.594
CG1582	DRSC19732	-0.881 (active)	-7.18	-1.5
glob1 (globin 1)	DRSC16959	0.468	0.145	0.771
GstT4 (Glutathione S transferase T4)	DRSC19757	-0.961	0.321	-1.1
SCAR	DRSC03426	-0.782	-0.568	-0.541
Gug (Grunge)	DRSC11179	-2.47	-0.206	0.0435
Gug (Grunge)	DRSC40848	-0.539	0.493	-1.8
Syx7 (Syntaxin 7)	DRSC11763	0.833	0.773	0.459
Ugt49C1 (UDP-glycosyltransferase family 49 member C1)	DRSC04252	0.832	0.895	0.522
Ugt49C1 (UDP-glycosyltransferase family 49 member C1)	DRSC27301	-0.176	-0.938	-0.0737
Gmap (Golgi microtubule-associated protein)	DRSC19988	0.508	-6.59	-0.568
Gmap (Golgi microtubule-associated protein)	DRSC20057	-0.161	0.215	-0.0398
Gmap (Golgi microtubule-associated protein)	DRSC29334	0.715	-1.45	-5.08
CG12379 + CG8191	DRSC19451	-0.12	-0.832	0.137
CG31321	DRSC13028	0.504	-1.69	-0.258
CG31321	DRSC27335	-4.12	0.278	-0.182
CG13984	DRSC02316	-0.585	0.989	-1
Ykt6 (YKT6 v-SNARE)	DRSC17970	1.16	1.16	1.21
Ykt6 (YKT6 v-SNARE)	DRSC26017	-6.18	1.44	0.404
TwdlH (TweedleH)	DRSC14735	-3.28	-0.0809	-1.45
CG12017	DRSC08225	-0.104	-0.388	-1.03
CG12017	DRSC28937	-1.31	-2.92	-0.775
Nup43 (Nucleoporin 43kD)	DRSC16279	-0.599	-0.584	0.0497
Zip99C (Zinc/iron regulated transporter-related protein 99C)	DRSC16320	-0.156	-0.21	-1.5
CG8236	DRSC16399	0.693	2.08	1.51
CG8236	DRSC26321	0.747	1.11	0.396
CG2070	DRSC06814	0.172	0.743	0.836
CG1421	DRSC03707	0.292	0.198	0.2
CG6293	DRSC16011	-0.105	-5.77	-0.188
CG6293	DRSC28774	0.154	0.426	1.61
Cdc2rk (Cdc2-related kinase)	DRSC07590	0.614	-0.0779	0.745
Cdc2rk (Cdc2-related kinase)	DRSC29758	-0.806	-0.711	0.159

Reformatted: entries from further up.
| target | amplicon | Wolbachia per cell robust z, rep 1 | Wolbachia per cell robust z, rep 2 | Wolbachia per cell robust z, rep 3 |
| --- | --- | --- | --- | --- |
| Rpn13 (Regulatory particle non-ATPase 13) | DRSC06379 | 0.338 | 0.707 | -0.345 |
| CG7322 | DRSC20036 | -0.669 | -0.43 | -1.09 |
| CG7322 | DRSC26735 | -2.35 | -1.06 | 0.0822 |
| CG14932 | DRSC02414 | -0.235 | -0.675 | 0.061 |
| CG14932 | DRSC26333 | 2.8 | 1.07 | 1.5 |
| mon2 (monensin sensitivity 2) | DRSC03112 | 0.264 | -0.357 | 0.904 |
| rk (rickets) | DRSC03602 | -0.47 | 0.122 | -0.398 |
| Ugt37A2 (UDP-glycosyltransferase family 37 member A2) | DRSC15861 | 1.48 | 1.09 | 1.23 |
| Ugt37A2 (UDP-glycosyltransferase family 37 member A2) | DRSC29967 | -6.81 | -8.1 | -2.47 |
| Kaz (Katazuke) | DRSC14637 | -0.508 (active) | -2 | -4.44 |
| fsd (fates-shifted) | DRSC06166 | -0.695 | -1.43 | -0.341 |
